This passage reports IC50 results from BindingDB's records for doi:10.1111/j.1747-0285.2007.00617.x (Burnham Institute For Medical Research, 2008).

In the assay the target is T1, Lethal factor (Bacillus anthracis, UniProt P15917).
T1 sequence (P15917 whole entry): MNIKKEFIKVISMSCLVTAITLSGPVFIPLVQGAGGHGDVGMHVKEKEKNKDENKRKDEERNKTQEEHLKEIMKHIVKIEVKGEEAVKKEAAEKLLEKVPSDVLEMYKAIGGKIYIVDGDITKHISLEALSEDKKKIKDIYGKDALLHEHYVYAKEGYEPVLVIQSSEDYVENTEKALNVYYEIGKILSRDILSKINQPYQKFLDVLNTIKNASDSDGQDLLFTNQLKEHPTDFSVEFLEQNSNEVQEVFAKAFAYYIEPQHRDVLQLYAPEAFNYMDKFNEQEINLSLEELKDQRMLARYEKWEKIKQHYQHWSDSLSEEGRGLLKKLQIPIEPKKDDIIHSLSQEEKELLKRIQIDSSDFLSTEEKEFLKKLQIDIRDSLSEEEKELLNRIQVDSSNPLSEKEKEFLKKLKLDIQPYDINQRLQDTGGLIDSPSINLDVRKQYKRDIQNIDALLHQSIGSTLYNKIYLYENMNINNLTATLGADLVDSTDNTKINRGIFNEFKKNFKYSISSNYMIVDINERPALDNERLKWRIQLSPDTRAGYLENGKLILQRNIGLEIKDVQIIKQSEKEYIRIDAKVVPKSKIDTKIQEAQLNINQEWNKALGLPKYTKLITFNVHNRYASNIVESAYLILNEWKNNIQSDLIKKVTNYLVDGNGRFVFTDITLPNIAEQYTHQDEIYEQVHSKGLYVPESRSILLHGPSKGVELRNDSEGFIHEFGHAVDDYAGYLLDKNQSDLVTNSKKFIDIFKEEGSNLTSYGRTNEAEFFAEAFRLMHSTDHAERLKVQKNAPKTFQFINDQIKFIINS
To be noted: pH 7.4; 25 °C.

In turn, `O=C(O)CN1C(=O)/C(=C/c2cc(-c3ccc(Cl)cc3)on2)SC1=S` [2-[(5Z)-5-{[5-(4-chlorophenyl)-1,2-oxazol-3-yl]methylidene}-4-oxo-2-sulfanylidene-1,3-thiazolidin-3-yl]acetic acid] came in with an IC50 of 5.2 µM.
